Here are results for seven substances from patent EP1922329B1.

The target of this experiment is protective antigen (PA) of Bacillus anthracis (Bacillus anthracis) (UniProt P13423). Description: cell-based or functional assay.
As to “CMG2-IgG (original construct: CMG2 amino acids 34-232 fused to the constant region of human IgG1) (from UniProt P58335 34-232) (Fc fusion)”, the IC50, RAW macrophage protection assay 07/20/05 stood at 0.242 µg/mL; the IC50, RAW macrophage protection assay 07/28/05 was found to be 0.224 µg/mL; the Molar ratio of antitoxin to PA at the IC50, assay 07/20/05 was determined as 2.16; the Molar ratio of antitoxin to PA at the IC50, assay 07/28/05 amounted to 2.

With “CMG2-IgG Variant 1 expressed together with CMG2-kappa (V1/K) (from UniProt P58335 34-218; P58335 34-232) (Fc fusion)”, the IC50, RAW macrophage protection assay 07/27/05 turned out to be 0.044 µg/mL and the Molar ratio of antitoxin to PA at the IC50, assay 07/27/05 worked out at 0.25.

“CMG2-IgG Variant 3 expressed together with CMG2-kappa (V3/K) (from UniProt P58335 34-218; P58335 34-232) (Fc fusion)”: the IC50, RAW macrophage protection assay 07/27/05 was 0.032 µg/mL and the Molar ratio of antitoxin to PA at the IC50, assay 07/27/05 came to 0.18.

On to “CMG2-IgG variant 1 (V1) (from UniProt P58335 34-218) (Fc fusion)”, for which the IC50, RAW macrophage protection assay 07/28/05 worked out at 0.197 µg/mL and the Molar ratio of antitoxin to PA at the IC50, assay 07/28/05 was 1.8.

For “CMG2-IgG variant 2a (V2a) (from UniProt P58335 34-232; P01857 99-330) (Fc fusion)”, the IC50, RAW macrophage protection assay 07/28/05 came out at 0.067 µg/mL and the Molar ratio of antitoxin to PA at the IC50, assay 07/28/05 amounted to 0.72.

Consider “CMG2-IgG variant 2b (V2b): VWA/I domain of CMG2 plus Cγ2/Cγ3 of IgG (from UniProt P58335 34-218) (Fc fusion)”, for which the IC50, RAW macrophage protection assay 07/20/05 is 0.041 µg/mL; the IC50, RAW macrophage protection assay 07/28/05 is 0.028 µg/mL; the Molar ratio of antitoxin to PA at the IC50, assay 07/20/05 worked out at 0.45; the Molar ratio of antitoxin to PA at the IC50, assay 07/28/05 was determined as 0.31.

On to “CMG2-IgG variant 3 (V3) (from UniProt P58335 34-218) (Fc fusion)”, for which the IC50, RAW macrophage protection assay 07/28/05 is 0.1 µg/mL and the Molar ratio of antitoxin to PA at the IC50, assay 07/28/05 came out at 0.91.
